# Reference: PMC7932532, “Construction, characterization, and immunization of nanoparticles that display a diverse array of influenza HA trimers” (2021)
# Legend:
# [1] = biological target: SpyTagged HA ectodomain trimer of A/Aichi/02/1968 (H3) with Y98F (influenza A virus A/Aichi/02/1968 (H3) | bacteriophage T4); assay: SEC
# [2] = biological target: SpyTagged HA ectodomain trimer of A/California/04/2009 (H1) with Y98F (influenza A virus A/California/04/2009 (H1) | bacteriophage T4); assay: SEC
# [3] = biological target: SpyTagged HA ectodomain trimer of A/Japan/305/1957 (H2) with Y98F (influenza A virus A/Japan/305/1957 (H2) | bacteriophage T4); assay: SEC
# [4] = biological target: SpyTagged HA ectodomain trimer of A/Jiangxi-Donghu/346/2013 (H10) with Y98F (influenza A virus A/Jiangxi-Donghu/346/2013 (H10) | bacteriophage T4); assay: SEC
# [5] = biological target: SpyTagged HA ectodomain trimer of A/Shanghai/1/2013 (H7) with Y98F (influenza A virus A/Shanghai/1/2013 (H7) | bacteriophage T4)
# [6] = biological target: SpyTagged HA ectodomain trimer of A/Vietnam/1203/2004 (H5) with Y98F (influenza A virus A/Vietnam/1203/2004 (H5) | bacteriophage T4)
# [7] = biological target: SpyTagged HA ectodomain trimer of A/swine/HuBei/06/2009 (H4) with Y98F (influenza A virus A/swine/HuBei/06/2009 (H4) | bacteriophage T4); assay: SEC
substance,measurement,setting,value
SpyTagged HA ectodomain trimer of A/Aichi/02/1968 (H3) with Y98F (domain or fragment),stoichiometry N,[1],3
SpyTagged HA ectodomain trimer of A/California/04/2009 (H1) with Y98F (domain or fragment),stoichiometry N,[2],3
SpyTagged HA ectodomain trimer of A/Japan/305/1957 (H2) with Y98F (domain or fragment),stoichiometry N,[3],3
SpyTagged HA ectodomain trimer of A/Jiangxi-Donghu/346/2013 (H10) with Y98F (domain or fragment),stoichiometry N,[4],3
SpyTagged HA ectodomain trimer of A/Shanghai/1/2013 (H7) with Y98F,stoichiometry N,[5],3
SpyTagged HA ectodomain trimer of A/Vietnam/1203/2004 (H5) with Y98F,stoichiometry N,[6],3
SpyTagged HA ectodomain trimer of A/swine/HuBei/06/2009 (H4) with Y98F (domain or fragment),stoichiometry N,[7],3
